Consider one compound from PubChem BioAssay AID624416 (The Scripps Research Institute Molecular Screening Center, 2012).

Only a part is listed here, and it is no random draw. Active and inactive are the calls of the source. Cut-off read from the data, not from the text of the source: active = inhibition above about 8.5%; inactive = the rest.

This assay concerns HIV-1 gp120 / PG9 antibody interaction. As to the kind of experiment: small molecules engaging PG9 antibody – biochemical, TR-FRET, primary screen (AID 624416). Conditions: TR-FRET gp120-PG9 antibody binding; at 6.7 µM; active compounds read high. (In general: Time-resolved FRET reads energy transfer from a long-lived donor to a nearby acceptor.)
On to `CC(=O)Nc1ccc([As](=O)(O)O)cc1`, for which the inhibition is inactive: -1.2%.

The term inhibition denotes the change of the read-out against control, counted positive when it falls.
